Measured values from several laboratories, pooled; numbers as filed in NIAID ChemDB.

Shared fields: growth or infection tests; agent: Candida albicans

Lines come from different laboratories, so protocols vary.

Cc1c(N2CCC(C)(N)C2)c(F)cn2c(=O)c(C(=O)O)cc(C3CC3)c12 ; strain or isolate: CCH442 ; endpoint: MIC ; value: >100 µg/mL
O=C(O)c1cc(O)c(O)c(O)c1 ; strain or isolate: ATCC 10231 ; read by: broth dilution ; endpoint: MLC ; value: 200 µg/mL
O=C(O)c1cccc(-n2nnnc2SCc2cc([N+](=O)[O-])cc([N+](=O)[O-])c2)c1 ; strain or isolate: ATCC 44859 ; read by: broth dilution ; setting: 24 h ; endpoint: EC80 ; value: >500 µM
CC(=O)Oc1ccc(/C=C/c2cc(OC(C)=O)cc(OC(C)=O)c2)cc1 ; strain or isolate: SC5314 ; read by: broth dilution ; endpoint: MIC95 ; value: >300 µg/mL
C1CCNCC1 ; strain or isolate: ATCC 90028 ; read by: broth dilution ; endpoint: MIC99.9 ; value: 1000 µg/mL
CNCC1CCCN(c2c(F)cn3c(=O)c(C(=O)O)cc(C4CC4)c3c2C)C1.Cl ; strain or isolate: CCH442 ; endpoint: MIC ; value: >100 µg/mL
CC(=O)c1cn(Cc2nnn(Cc3nnc(SC4OC(O)C(O)C(O)C4O)n3-c3ccc(Cl)cc3)n2)c2ccccc12 ; read by: agar ; endpoint: MIC99 ; value: 110 µg/mL
Cc1c(N2CC3CCC(N)C3C2)c(F)cn2c(=O)c(C(=O)O)cc(C3CC3)c12.Cl ; strain or isolate: CCH442 ; endpoint: MIC ; value: >100 µg/mL
OC(Cn1cncn1)(Cn1cncn1)c1ccc(F)cc1F ; strain or isolate: YL 325 ; read by: broth dilution ; endpoint: MIC ; value: 512 µg/mL
O=[N+]([O-])c1cc(C[Se]c2nnnn2Cc2ccccc2)cc([N+](=O)[O-])c1 ; strain or isolate: ATCC 44859 ; read by: broth dilution ; setting: 24 h ; endpoint: EC80 ; value: >500 µM
CC1=CC[C@@H]2C[C@H]1C2(C)C ; strain or isolate: ATCC 90028 ; read by: broth dilution ; endpoint: MIC99.9 ; value: >8000 µg/mL
CCOC(=O)Cn1nnc(Cn2cc(C(C)=O)c3ccccc32)n1 ; read by: agar ; endpoint: MIC99 ; value: 210 µg/mL
Cn1c(=O)c2c(ncn2C)n(C)c1=O ; strain or isolate: ATCC 90028 ; read by: broth dilution ; endpoint: MIC99.9 ; value: >8000 µg/mL
C(/C=C/c1ccccc1)=NCCNCCN=C/C=C/c1ccccc1.[Br][Hg][Br] ; read by: agar diffusion ; endpoint: zone ; tested at: 30000 µg/mL ; value: 26 mm
O=[N+]([O-])c1cc(CSc2cccc[n+]2[O-])cc([N+](=O)[O-])c1 ; strain or isolate: ATCC 44859 ; read by: broth dilution ; setting: 24 h ; endpoint: EC80 ; value: >500 µM
Oc1ccc(/C=C/c2cc(O)cc(O)c2)cc1 ; strain or isolate: SC5314 ; read by: broth dilution ; endpoint: MIC95 ; value: >300 µg/mL
Cc1c(N2CC[C@@H]([C@H](N)CO)C2)c(F)cn2c(=O)c(C(=O)O)cc(C3CC3)c12 ; strain or isolate: CCH442 ; endpoint: MIC ; value: >100 µg/mL
Cc1c(N2CC[C@@H]([C@H](N)CO)C2)c(F)cn2c(=O)c(C(=O)O)cc(C3CC3)c12 ; strain or isolate: CCH442 ; endpoint: MIC ; value: >100 µg/mL
C[C@@H]1O[C@@H](Oc2c(-c3ccc(O)c(O)c3)oc3cc(O)cc(O)c3c2=O)[C@H](O)[C@H](O)[C@H]1O ; strain or isolate: ATCC 10231 ; read by: broth dilution ; endpoint: MLC ; value: 200 µg/mL
Cc1c(N2C[C@@H](CN)[C@H](C(F)(F)F)C2)c(F)cn2c(=O)c(C(=O)O)cc(C3CC3)c12.Cl ; strain or isolate: CCH442 ; endpoint: MIC ; value: >100 µg/mL
Nc1nc(=O)n([C@H]2CS[C@@H](CO)O2)cc1F ; strain or isolate: 85 strains (fluconazole-resistant) ; endpoint: MIC50 ; value: 0.25 µg/mL
CC(C)(C)c1ccc(C[N+]2=Cc3cc4c(cc3CC2)OCO4)cc1.[Br-] ; strain or isolate: Clinical isolate ; mutations: Fluconazole-resistant ; read by: broth dilution ; endpoint: MIC80 ; value: >64 µg/mL
CC[C@@H](NC)[C@@H]1CCN(c2c(F)cn3c(=O)c(C(=O)O)cc(C4CC4)c3c2C)C1.Cl ; strain or isolate: CCH442 ; endpoint: MIC ; value: >100 µg/mL
O=Cc1cc(O)ccc1O ; strain or isolate: ATCC 10231 ; read by: broth dilution / turbidity ; endpoint: EC50 ; value: 0.59 µM
CC(=O)Oc1cc(O)cc(/C=C/c2ccc(O)cc2)c1 ; strain or isolate: SC5314 ; read by: broth dilution ; endpoint: MIC95 ; value: >300 µg/mL
CCC[C@H](N)C(=O)N[C@H]1CCN(c2c(F)cn3c(=O)c(C(=O)O)cc(C4CC4)c3c2C)C1.Cl ; strain or isolate: CCH442 ; endpoint: MIC ; value: >100 µg/mL
C(/C=C/c1ccccc1)=NCCNCCN=C/C=C/c1ccccc1.[Cl][Hg][Cl] ; read by: agar diffusion ; endpoint: zone ; tested at: 10000 µg/mL ; value: 24 mm
Cc1c(N)nc([C@H](CC(N)=O)NC[C@H](N)C(N)=O)nc1C(=O)N[C@H](C(=O)N[C@H](C)[C@@H](O)[C@H](C)C(=O)N[C@H](C(=O)NCCc1nc(-c2nc(C(=O)NCCC[S+](C)C)cs2)cs1)[C@@H](C)O)C(O[C@@H]1O[C@@H](CO)[C@@H](O)[C@H](O)[C@@H]1O[C@H]1O[C@H](CO)[C@@H](O)[C@H](OC(N)=O)[C@@H]1O)c1cnc[nH]1 ; strain or isolate: Isolate 94-77 ; endpoint: MLC ; value: 50 µg/mL
O=[N+]([O-])c1cc(CSc2nnnn2Cc2ccccc2)cc([N+](=O)[O-])c1 ; strain or isolate: ATCC 44859 ; read by: broth dilution ; setting: 48 h ; endpoint: EC80 ; value: >500 µM
CC(C)C12CCC(C)(CC1)O2 ; strain or isolate: ATCC 90028 ; read by: broth dilution ; endpoint: MIC50 ; value: >8000 µg/mL
C[C@@H](c1ncncc1F)[C@](O)(Cn1cncn1)c1ccc(F)cc1F ; strain or isolate: 4054 strains (fluconazole-susceptible) ; endpoint: MIC90 ; value: 0.015 µg/mL
c1ccc2[nH]ccc2c1 ; strain or isolate: ATCC 90028 ; read by: broth dilution ; endpoint: MIC99.9 ; value: 1000 µg/mL
COC(=O)[C@]12CCC(C)(C)C=C1C1CCC3[C@@]4(C)CCC(=O)C(C)(C)C4CC[C@@]3(C)[C@]1(C)CC2 ; strain or isolate: ATCC 10231 ; read by: broth dilution ; endpoint: MLC ; value: >200 µg/mL
Cc1c(N2CCCC(C)(N)C2)c(F)cn2c(=O)c(C(=O)O)cc(C3CC3)c12.Cl ; strain or isolate: CCH442 ; endpoint: MIC ; value: >100 µg/mL
Clc1ccc(COC(Cn2ccnc2)c2ccc(Cl)cc2Cl)cc1 ; endpoint: MIC95 ; value: 12.5 µg/mL
Clc1ccc(-n2ncc(C(c3ccccc3)n3ccnc3)c2-c2ccccc2Cl)c(Cl)c1 ; endpoint: MBC ; value: 33.3 µM
CC(=O)N1CCN(c2ccc(OC[C@H]3CO[C@](Cn4ccnc4)(c4ccc(Cl)cc4Cl)O3)cc2)CC1 ; strain or isolate: Isogenic isolate 12 (25X) ; endpoint: MIC ; value: ≤0.008 µg/mL
COc1cccc(C=O)c1 ; strain or isolate: 10261 ; read by: agar diffusion / agar ; endpoint: MIC90 ; value: 500–900 µg/mL
COc1cc(C[C@H](C)[C@H](C)Cc2ccc(O)c(O)c2)ccc1O ; strain or isolate: CCC 125-2000 ; read by: broth dilution ; endpoint: MIC50 ; value: 62.5 µg/mL
Cc1c(N2CCC[C@@H]2CO)c(F)cn2c(=O)c(C(=O)O)cc(C3CC3)c12 ; strain or isolate: CCH442 ; endpoint: MIC ; value: >100 µg/mL
Cc1ccc(C(C)C)c(O)c1 ; strain or isolate: PYCC 3436 ; read by: broth dilution / turbidity ; endpoint: EC50 ; value: 0.19 µM
Clc1ccc(COC(Cn2ccnc2)c2ccc(Cl)cc2Cl)c(Cl)c1 ; strain or isolate: ICB 12 ; read by: broth dilution ; endpoint: MFC100 ; value: 32 µg/mL
Cc1c(N2CC[C@@H]([C@@H](C)N)C2)c(F)cn2c(=O)c(C(=O)O)cc(C3CC3)c12 ; strain or isolate: CCH442 ; endpoint: MIC ; value: >100 µg/mL
CN1CCN(c2c(F)cn3c(=O)c(C(=O)O)cc(-c4ccccc4)c3c2F)CC1.Cl ; strain or isolate: CCH442 ; endpoint: MIC ; value: >100 µg/mL
CC(=O)Oc1cc(/C=C/c2ccc(O)cc2)cc(OC(C)=O)c1 ; strain or isolate: SC5314 ; read by: broth dilution ; endpoint: MIC95 ; value: >300 µg/mL
O=[N+]([O-])c1cc(CSc2nnnn2-c2ccc(Cl)c(Cl)c2)cc([N+](=O)[O-])c1 ; strain or isolate: ATCC 44859 ; read by: broth dilution ; setting: 48 h ; endpoint: EC80 ; value: >125 µM
C=CC(C)(O)CCC=C(C)C ; strain or isolate: ATCC 90028 ; read by: broth dilution ; endpoint: MIC99.9 ; value: >8000 µg/mL
C[C@@H]([C@H]1CC[C@H](C)C(=O)C1)[C@H]1CC[C@]2(C)C3=C(CC[C@@]12C)[C@]1(C)CC[C@H](O)C(C)(C)[C@H]1CC3 ; strain or isolate: MTCC 183 ; read by: agar diffusion / agar ; endpoint: zone ; tested at: 0.2 µg/disc ; value: 0 mm
O=C(NCCc1ccc2c(c1)OCO2)c1ccc([N+](=O)[O-])cc1 ; strain or isolate: Clinical isolate ; mutations: Fluconazole-resistant ; read by: broth dilution ; endpoint: MIC80 ; value: >64 µg/mL
O=C(O)c1ccccc1 ; strain or isolate: ATCC 90028 ; read by: broth dilution / turbidity ; endpoint: EC50 ; value: 0.19 µM
CCO[C@@H]1C[C@@H]([C@H](C)[C@H]2CC[C@]3(C)C4=C(CC[C@@]23C)[C@]2(C)CC[C@H](O)C(C)(C)[C@H]2CC4)CC[C@@H]1C ; strain or isolate: MTCC 183 ; read by: agar diffusion / agar ; endpoint: zone ; tested at: 10 µg/disc ; value: 25 mm
Clc1ccc(-c2c(C(c3ccccc3)n3ccnc3)cnn2-c2ccc(Cl)cc2Cl)cc1 ; endpoint: MBC ; value: 11.1 µM
Cc1ccc(C(C)C)cc1 ; strain or isolate: ATCC 90028 ; read by: broth dilution ; endpoint: MIC99.9 ; value: 8000 µg/mL
CN(C/C=C/C#CC(C)(C)C)Cc1cccc2ccccc12 ; strain or isolate: CI_3 ; endpoint: MIC50 ; value: 1 µg/mL
CC(C)OC(=O)c1ccc(C[N+]2=C(c3ccco3)c3cc4c(cc3CC2)OCO4)cc1.[Br-] ; strain or isolate: Clinical isolate ; mutations: Fluconazole-resistant ; read by: broth dilution ; endpoint: MIC80 ; value: >64 µg/mL
CC1=C(N2CC[C@@H]([C@H](N)C(F)(F)F)C2)C(F)=CN2C(=O)C(C(=O)O)=CC(C3CC3)C12 ; strain or isolate: CCH442 ; endpoint: MIC ; value: >100 µg/mL
Clc1ccc(-n2ncc(C(c3ccccc3)n3ccnc3)c2-c2ccccc2)c(Cl)c1 ; endpoint: MBC ; value: ≥100 µM
O=C(Cc1ccc([N+](=O)[O-])cc1)NCCc1ccc2c(c1)OCO2 ; strain or isolate: Clinical isolate ; mutations: Fluconazole-resistant ; read by: broth dilution ; endpoint: MIC80 ; value: >64 µg/mL
Cc1c(N2CC[C@H]([C@@H](C)N)C2)c(F)cn2c(=O)c(C(=O)O)cc(C3CC3)c12.Cl ; strain or isolate: CCH442 ; endpoint: MIC ; value: >100 µg/mL
CC(=O)Oc1ccc(/C=C/c2cc(O)cc(OC(C)=O)c2)cc1 ; strain or isolate: SC5314 ; read by: broth dilution ; endpoint: MIC95 ; value: >300 µg/mL
COc1ccc2c(Cc3cccc(F)c3)c3[n+](cc2c1OC)CCc1cc2c(cc1-3)OCO2.[Br-] ; strain or isolate: Clinical isolate ; mutations: Fluconazole-resistant ; read by: broth dilution ; endpoint: MIC80 ; value: >64 µg/mL

A second listing of 7 rows from above:

{"SMILES": "C(/C=C/c1ccccc1)=NCCNCCN=C/C=C/c1ccccc1.[Br][Hg][Br]", "read by": "agar diffusion", "endpoint": "zone", "tested at": "30000 µg/mL", "value": "26 mm"}
{"SMILES": "O=C(NCCc1ccc2c(c1)OCO2)c1ccc([N+](=O)[O-])cc1", "strain or isolate": "Clinical isolate", "mutations": "Fluconazole-resistant", "read by": "broth dilution", "endpoint": "MIC80", "value": ">64 µg/mL"}
{"SMILES": "c1ccc2[nH]ccc2c1", "strain or isolate": "ATCC 90028", "read by": "broth dilution", "endpoint": "MIC99.9", "value": "1000 µg/mL"}
{"SMILES": "CC(=O)Oc1ccc(/C=C/c2cc(OC(C)=O)cc(OC(C)=O)c2)cc1", "strain or isolate": "SC5314", "read by": "broth dilution", "endpoint": "MIC95", "value": ">300 µg/mL"}
{"SMILES": "CC[C@@H](NC)[C@@H]1CCN(c2c(F)cn3c(=O)c(C(=O)O)cc(C4CC4)c3c2C)C1.Cl", "strain or isolate": "CCH442", "endpoint": "MIC", "value": ">100 µg/mL"}
{"SMILES": "C=CC(C)(O)CCC=C(C)C", "strain or isolate": "ATCC 90028", "read by": "broth dilution", "endpoint": "MIC99.9", "value": ">8000 µg/mL"}
{"SMILES": "Cc1c(N)nc([C@H](CC(N)=O)NC[C@H](N)C(N)=O)nc1C(=O)N[C@H](C(=O)N[C@H](C)[C@@H](O)[C@H](C)C(=O)N[C@H](C(=O)NCCc1nc(-c2nc(C(=O)NCCC[S+](C)C)cs2)cs1)[C@@H](C)O)C(O[C@@H]1O[C@@H](CO)[C@@H](O)[C@H](O)[C@@H]1O[C@H]1O[C@H](CO)[C@@H](O)[C@H](OC(N)=O)[C@@H]1O)c1cnc[nH]1", "strain or isolate": "Isolate 94-77", "endpoint": "MLC", "value": "50 µg/mL"}

ECn: concentration that inhibits the pathogen or its effect by n%. A number after MIC or MFC names an inhibition level or a share of isolates. Zone: diameter of growth inhibition. Two numbers with a dash give a range or band.